Data set [1] relates to T1, CepR.
T1 sequence (looked up): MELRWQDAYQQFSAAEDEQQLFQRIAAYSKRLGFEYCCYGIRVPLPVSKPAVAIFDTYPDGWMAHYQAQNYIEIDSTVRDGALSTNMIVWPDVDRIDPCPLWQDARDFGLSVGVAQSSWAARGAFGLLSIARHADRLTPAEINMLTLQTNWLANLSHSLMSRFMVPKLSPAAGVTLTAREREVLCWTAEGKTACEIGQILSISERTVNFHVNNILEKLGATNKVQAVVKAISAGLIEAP
Put plainly: EMSA. The conditions noted are these: no oridonin; EMSA: 30 min at room temperature, manufacturer's (Thermo Fisher) binding reaction, 5% polyacrylamide gel; salt and pH not given; recombinant protein; residues 1-239; label: biotin 3' end; probe letters rebuilt from the primers and the genome. On the technique in general: Mobility shift assays separate free from complexed probe on a gel.

For data set [2], the system named is T2, RqpR.
T2 sequence (looked up): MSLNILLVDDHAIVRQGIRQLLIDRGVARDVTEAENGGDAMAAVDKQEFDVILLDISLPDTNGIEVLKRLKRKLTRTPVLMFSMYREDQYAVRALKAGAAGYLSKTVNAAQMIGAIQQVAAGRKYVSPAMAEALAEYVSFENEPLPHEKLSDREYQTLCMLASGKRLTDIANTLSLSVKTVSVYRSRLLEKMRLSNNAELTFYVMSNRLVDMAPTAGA
Put plainly: EMSA. The conditions noted are these: no oridonin; EMSA: 30 min at room temperature, manufacturer's (Thermo Fisher) binding reaction, 5% polyacrylamide gel; salt and pH not given; recombinant protein; residues 1-218; protein details: His tag, TEV cleavage of fusion described; probe letters rebuilt from the primers and the genome.

For at least one entry, the source does not settle the construct or the ends of the probe. At least one verdict was read from the data and is not stated in words by the source. Tags and fusion partners may be left off the protein sequences shown.

Consider “CGAACATGAATAGGGCCTCACCGGCGCCGCACCCGTGAAGCATATCGATGGGGCCAGCCGCCGCCTATCGGACTGGACTGATTCTGCGCCAACGCGCGTGTCGGGAGACGACGCGGAATGAATGCGACCGGTTGACAGCCGTGGCCACCCTGTGATTTGATGCCGGTCATGCACGCCGCCCAGTTCCTCTTCTCGCTACGACTACTAGCCCGCTTCTCCGGGCTGGGTCTGCGGCTGCGCGCTTTCCATCTGCTTCTTTCCTGAAGCGCCAGATTTTCCCCGCATCACCGACCTGGCCCCGGTTGTCGACCGGCGCCTGAGTTCGTCTTTCTTCCGTCACCACTCCGCTCCGTCCCGGTCGCCCAACCGCCAAGGCCGTCGTTTGCCGTACCGCTTTGCCGTTGTGCCGCTTTTTTGCCGTTCTTACCGCTGCGCATGGACCCGGCTCATCACGCCGATGGCCGCCGCGCCGCGCTTCACCGACAAACAGACCGAGGACCGACATC (double strand) [bclACB promoter probe]”, for which the binding result in data set [1] was “binds”.
Regarding “GTCGAAGCTCTCCGCGCGTTCGTTGCCGGGCGTCAGCGCCGCGCGCCGGAGCGGGAGTCGTACCGCATGACGCGCGCATGACAAGCCTCTCGCGCGCACTCGCACGCGGGGCCGTCGTGCGGCCCAGTGTGGGCGACGGGCCGGCGAGCGTCAAGCCGCGCCAGCGGGAAGGAGACCTCATGCCGATCGGTGACGCTTGCGCAACCGGTGACCGCGTGATGGCGTTCGCGTGGCTGCGTGTGATCCTGTTCGGCACGCTGCCAACGGTGCTGCATCCCGAACGGCCGCATCCGAAGCCGATCGACGCCGAGCGGCCATGCGCGCCGCGCGCGCCCTCTCGCTCACGACGAGACGAATCGCCCCCACGCCGGTCGACCCGATCCGCAACAGCGGATCGGCGTCCTGACGTCGCTTTCAGCGCGTAAGCGACCGGCGACGCCGGCGCGCCCGCTCCACTCGAGTCCCCTCCCCCACCGACCTCAACCCGTCGTCCCGCCCTCCGTCGTCACCCGCCCTTTCGCCCGACCGCAAGCCGCACGGGTTTTCCGTTCGTGCGTTGTTCCCCGCAATTCGACTTTTGTGCGCGCGCAACAATGGCGATGCCTCGCGCCAGGCGCCCCGGCGGGCAACCCGATACCCGCATGGCGCATGGCGCGACGGTCTTTAAAACCACATCTCACGAGGACATACC (double strand) [rpfFBC promoter probe]”, the binding result in data set [2] was “binds”.

(Values after publication PMC9430380, “Oridonin Attenuates Burkholderia cenocepacia Virulence by Suppressing Quorum-Sensing Signaling” (Microbiology Spectrum, 2022).)
